Here are results for 1 substance from PMC10471735.

Test in all cases: ITC
For orientation: Isothermal titration calorimetry measures the heat released or taken up as one component is titrated into another.

Test [1] concerns the target MIC2 TSR6 (597–651) F637A (Toxoplasma gondii).
Test [2] has as its target MIC2 TSR6 (597–651) H620A (Toxoplasma gondii).
Test [3] addresses MIC2 TSR6 (597–651) S605 mutant (Toxoplasma gondii).
In test [4] the target is MIC2 TSR6 (597–651) T636A (Toxoplasma gondii).
The target in test [5] is MIC2 TSR6 (597–651) V623A (Toxoplasma gondii).

Turning to “MIC2-associated protein (M2AP) core β-domain, residues 47–228, N127R, S177N (domain or fragment)”, the fold decrease in affinity against WT TSR6 in test [1] was found to be 4 fold; in test [3], 2 fold; in test [4] it was 10 fold; in test [5] it was 3 fold. Further, the fold decrease in binding against WT TSR6 in test [2] was greater than 5000 fold.
